The text below walks through data of patent US20220380347A1.

Chains of the proteins cited; added tags and fusions are not shown. Residues count along the entry.
UniProt P0C6X1, 2966-3267 limits assumed: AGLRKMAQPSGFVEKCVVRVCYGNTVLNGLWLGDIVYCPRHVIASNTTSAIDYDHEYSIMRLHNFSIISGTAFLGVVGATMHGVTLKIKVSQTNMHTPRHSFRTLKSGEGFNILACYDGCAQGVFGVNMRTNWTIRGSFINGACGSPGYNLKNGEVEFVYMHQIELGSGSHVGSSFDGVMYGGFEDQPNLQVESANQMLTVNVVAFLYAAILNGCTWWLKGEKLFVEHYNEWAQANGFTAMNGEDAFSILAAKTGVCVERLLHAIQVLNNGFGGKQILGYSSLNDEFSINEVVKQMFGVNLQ

The target of one series is 229E Mpro (Human coronavirus 229E, UniProt P0C6X1). The experiment in a line: 229E Mpro enzymatic assay. Particulars: read-out: 229E Mpro EC50.
The test system of the next series is HCoV 229E. The series can be described thus: HCoV 229E cytopathic effect. In kind it is cell-based, human coronavirus (HCov) 229E. Particulars: read-out: 229E CPE EC50; protection of virus-induced CPE. (In general: Damage to the host cells serves as the signal in cytopathic effect assays.)
Series [1] has as its target COVID-19 (nCoV-2019, SARS-CoV2) Mpro (Severe acute respiratory syndrome coronavirus 2, UniProt P0DTD1). The experiment in a line: COVID-19. In kind it is biochemical. To be noted: read-out: COVID-19 Mpro IC50; 25 nM Mpro, 25 μM substrate.
Series [2] concerns cells without virus infection.
A further series has as its system HCov OC43. Particulars: read-out: OC43 IC50 (uM) MEDIAN.

Take `CC(C)(C)NC(=O)C(c1cccnc1)N(C(=O)[C@H]1CCCN1C#N)c1ccc(C(C)(C)C)cc1` (single isomer, unassigned): the EC50 on 229E Mpro and in the series on HCoV 229E was under 2000 nM in each case.
Consider `CC(C)(C)c1ccc(N(C(=O)C2N(C#N)CC2(C)C)C(C(=O)NC2CCCCC2)c2cccnc2)cc1` (single isomer, unassigned), for which the EC50 (in general, the concentration needed to bring the measured effect to its halfway point) was under 2000 nM at 229E Mpro and 2000 to 10000 nM in the series with HCoV 229E. Besides, in series [1], the IC50 (in general, the concentration at which inhibition is half-maximal) is under 2000 nM. The CC50 (in general, the concentration that lowers cell viability or growth by half) in series [2] lay in the range of 2000 to 10000 nM.
Take `CC(C)(C)c1ccc(N(C(=O)[C@H]2CCCN2C#N)C(C(=O)NC2CCC(F)(F)CC2)c2cccnc2)cc1` (single isomer, unassigned): the EC50 on 229E Mpro and with HCoV 229E was under 2000 nM each time.
Take `CC(C)(C)c1ccc(N(C(=O)[C@H]2CCCN2C#N)C(C(=O)NC2CCCCC2)c2cncc3ccccc23)cc1` (single isomer, unassigned): the IC50 in the series on HCov OC43 lay in the range of 2 to 10 µM. The EC50 at 229E Mpro and in the series on HCoV 229E was under 2000 nM throughout. The 50% cytotoxic concentration (CC50) in series [2] fell in the range of 2000 to 10000 nM.
With `CC(C)(C)c1ccc(N(C(=O)[C@H]2CSCCN2C#N)C(C(=O)NC2CCCCC2)c2cccnc2)cc1` (single isomer, unassigned), the figures for the EC50 at 229E Mpro and with HCoV 229E were under 2000 nM and 2000 to 10000 nM, respectively. The CC50 in series [2] is over 30000 nM.
`CC(C)(C)c1ccc(N(C(=O)[C@H]2C[C@@H](O)CN2C#N)C(C(=O)NC2CCCCC2)c2cncc(F)c2)cc1` (single isomer, unassigned): the EC50 on 229E Mpro and in the series with HCoV 229E was under 2000 nM each time. Moreover, the CC50 in series [2] lay in the range of 10000 to 30000 nM.
As for `N#CN1CCC[C@@H]1C(=O)N(c1ccc(C2CC2)cc1)C(C(=O)NC1CCCCC1)c1cccnc1` (single isomer, unassigned), the IC50 in the series on HCov OC43 lay in the range of 2 to 10 µM. Further, the EC50 on 229E Mpro and in the series with HCoV 229E was under 2000 nM throughout. This compound came in with a CC50 in series [2] of over 30000 nM.
Turning to `NC(=O)c1nc(C2CC2)ccc1N(C(=O)c1cnc[nH]1)C(C(=O)NC1CCCCC1)c1cccnc1` (single isomer, unassigned) [120 Isomer 1], the concentration giving a half-maximal response (EC50) on 229E Mpro was 10000 to 30000 nM. The IC50 in series [1] was over 30000 nM.
Taken in the same sequence, the figures for `NC(=O)c1nc(C2CC2)ccc1N(C(=O)c1cnc[nH]1)C(C(=O)NC1CCCCC1)c1cccnc1` (single isomer, unassigned) [120 Isomer 2] were 10000 to 30000 nM and 10000 to 30000 nM.
Regarding `CC1(C)CN(C#N)[C@@H](C(=O)N(c2ccc(C(C)(C)C)cc2)C(C(=O)NC2CCCCC2)c2cccnc2)CO1` (single isomer, unassigned) [208 Isomer 1], the concentration giving a half-maximal response (EC50) at 229E Mpro and in the series with HCoV 229E was 2000 to 10000 nM each time.
Consider `CC1(C)CN(C#N)[C@@H](C(=O)N(c2ccc(C(C)(C)C)cc2)C(C(=O)NC2CCCCC2)c2cccnc2)CO1` (single isomer, unassigned) [208 Isomer 2], for which the IC50 with HCov OC43 lay within 2 to 10 µM. The EC50 on 229E Mpro and in the series with HCoV 229E was under 2000 nM in each case.
With `CC(C)(C)c1ccc(N(C(=O)[C@H]2CCCN2C#N)C(C(=O)NC2CC2)c2cccnc2)cc1` (single isomer, unassigned) [459 Isomer 1], the IC50 with HCov OC43 fell in the range of 2 to 10 µM. Moreover, the EC50 at 229E Mpro and in the series on HCoV 229E was under 2000 nM throughout.
Regarding `CC(C)(C)NC(=O)C(c1cccnc1)N(C(=O)[C@H]1C[C@@H](O)CN1C#N)c1ccc(C(C)(C)C)cc1` (single isomer, unassigned) [579 Isomer 1], the IC50 in the series with HCov OC43 was under 2 µM. Also, the EC50 at 229E Mpro and in the series on HCoV 229E was under 2000 nM each time.
On to `CC(C)(C)c1ccc(N(C(=O)[C@H]2C[C@@H](O)CN2C#N)C(C(=O)NC2CCC(F)(F)CC2)c2cccnc2)cc1` (single isomer, unassigned) [583 Isomer 1], for which the IC50 in the series with HCov OC43 is under 2 µM. Moreover, the half-maximal effective concentration (EC50) at 229E Mpro and with HCoV 229E was under 2000 nM in each case. The same compound yielded a CC50 in series [2] of over 30000 nM.
`CC(C)(C)c1ccc(N(C(=O)[C@H]2C[C@@H](O)CN2C#N)C(C(=O)NC2CCC(F)(F)CC2)c2cccnc2)cc1` (single isomer, unassigned) [583 Isomer 2]: the IC50 with HCov OC43 is under 2 µM. Besides, the EC50 on 229E Mpro was under 2000 nM; in the series with HCoV 229E it was 2000 to 10000 nM. Moreover, the CC50 in series [2] was over 30000 nM.
As to `CO[C@@H]1C[C@H](C(=O)N(c2ccc(C(C)(C)C)cc2)C(C(=O)NC2CCC(F)(F)CC2)c2cccnc2)N(C#N)C1` (single isomer, unassigned) [1139 Isomer 1], in the series on HCov OC43, the IC50 is under 2 µM. Besides, the EC50 at 229E Mpro and in the series on HCoV 229E was under 2000 nM in each case.
Consider `CO[C@@H]1C[C@H](C(=O)N(c2ccc(C(C)(C)C)cc2)C(C(=O)NC2CCC(F)(F)CC2)c2cccnc2)N(C#N)C1` (single isomer, unassigned) [1139 Isomer 2], for which the IC50 with HCov OC43 lay in the range of 2 to 10 µM. In addition, the EC50 on 229E Mpro was under 2000 nM; in the series on HCoV 229E, 2000 to 10000 nM.
Turning to `N#CN1CCOC[C@@H]1C(=O)N(c1ccc(S(F)(F)(F)(F)F)cc1)C(C(=O)NC1CCC(F)(F)CC1)c1cccnc1` (single isomer, unassigned) [1315 Isomer 1], the IC50 in the series on HCov OC43 is under 2 µM. Besides, the EC50 at 229E Mpro is under 2000 nM.
Taken in the same sequence, the figures for `N#CN1CCOC[C@@H]1C(=O)N(c1ccc(S(F)(F)(F)(F)F)cc1)C(C(=O)NC1CCC(F)(F)CC1)c1cccnc1` (single isomer, unassigned) [1315 Isomer 2] were 2 to 10 µM and under 2000 nM.
Taken in the same sequence, the figures for `O=C(NC1CCC(F)(F)CC1)C(c1cnccc1C(F)(F)F)N(C(=O)c1cnc[nH]1)c1ccc(C2CC2)cc1F` (single isomer, unassigned) [1338 Isomer 1] were 2 to 10 µM and under 2000 nM.
For `O=C(NC1CCC(F)(F)CC1)C(c1cnccc1C(F)(F)F)N(C(=O)c1cnc[nH]1)c1ccc(C2CC2)cc1F` (single isomer, unassigned) [1338 Isomer 2], in that order: 10 to 30 µM and 10000 to 30000 nM.
Regarding `C[C@@]1(O)C[C@H](C(=O)N(c2ccc(-c3ccccc3)cc2)C(C(=O)NC2CCC(F)(F)CC2)c2cnccc2C(F)(F)F)N(C#N)C1` (single isomer, unassigned) [1349 Isomer 1], the IC50 with HCov OC43 is under 2 µM. Also, on 229E Mpro, the concentration giving a half-maximal response (EC50) is under 2000 nM.
Taken in the same sequence, the figures for `C[C@@]1(O)C[C@H](C(=O)N(c2ccc(-c3ccccc3)cc2)C(C(=O)NC2CCC(F)(F)CC2)c2cnccc2C(F)(F)F)N(C#N)C1` (single isomer, unassigned) [1349 Isomer 2] were 2 to 10 µM and 2000 to 10000 nM.
As to `C[C@H](NC(=O)C(c1cnccc1C(F)(F)F)N(C(=O)[C@H]1C[C@@](C)(O)CN1C#N)c1ccc(-c2ccccc2)cc1)c1ccccc1` (single isomer, unassigned) [1351 Isomer 1], the IC50 in the series on HCov OC43 was under 2 µM. Besides, the EC50 on 229E Mpro was under 2000 nM.
For `C[C@H](NC(=O)C(c1cnccc1C(F)(F)F)N(C(=O)[C@H]1C[C@@](C)(O)CN1C#N)c1ccc(-c2ccccc2)cc1)c1ccccc1` (single isomer, unassigned) [1351 Isomer 2], in that order: 2 to 10 µM and 2000 to 10000 nM.
